In general, inhibition refers to the change of the read-out against control, counted positive when it falls.

We go through 29 molecules from PubChem BioAssay AID743269 (The Scripps Research Institute Molecular Screening Center, 2014).

The structures appear in SMILES notation. The entries are a selection whose mix differs from that of the whole data set. The source made the active and inactive calls.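 The calls were made as follows: active = inhibition above the screen-wide mean plus 3 SD (cut at about 13% in these data); inactive = the rest.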

The experiment has as its system HIV-1 integrase (with human LEDGF/p75). In words: blockers of LEDGF/p75-dependent integrase strand transfer – biochemical, TR-FRET, high throughput, primary screen (AID 743269).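 Also: signal is the Cy5 over europium emission ratio at 671 and 618 nm; 0% = plate median of compound wells.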 The following applies: TR-FRET IN-LEDGF/p75 DNA integration, Eu/Cy5; at 3.7 µM; hits give high values. (TR-FRET usually uses a lanthanide donor and a delayed reading to cut background.)
Turning to `O=C(OC1CN2CCC1CC2)c1ccc(Cl)cc1` (centres undefined), the inhibition was inactive: 1.13%.
As for `O=[As](O)(c1cccc(O)c1)c1cccc(O)c1`, the figure is inactive: 2.98%; as for `Cc1cccc(OCC(=O)OC2CN3CCC2CC3)c1` (centres undefined), inactive: -1.28%.
With `CCCOP(=S)(Nc1nc(N)cc(=O)[nH]1)OCCC`, the inhibition was inactive: 2.11%.
As for `Nc1cccc2c([As](=O)(O)O)cccc12`, the figure is active: 41.8%; as for `Cc1ccc(NCCc2c([N+](=O)[O-])cc([N+](=O)[O-])cc2[N+](=O)[O-])cc1`, inactive: 3.37%.
On to `COc1cc(C2NCCC3(OCCO3)C2(C)C)cc(OC)c1OC` (centres undefined), for which the inhibition was inactive: -0.97%.
As for `CCOP(=O)(Nc1cccc2ccccc12)OCC`, the figure is inactive: -2.51%; as for `CN(CCCl)Cc1cc(Cl)c(NC2=NCCN2)c(Cl)c1`, inactive: -1.67%; as for `CCOP(=O)(Nc1ccc(C)cn1)OCC`, inactive: -2.83%.
On to `O=P1(Nc2ccccn2)COc2ccccc2OC1`, for which the inhibition was inactive: 1.5%.
As for `CCC1=CC2Cc3nc4ccc(Cl)cc4c(N)c3C(C1)C2` (centres undefined), the figure is inactive: -5.21%; as for `CCOP(=O)(NC(=NC(C)c1ccccc1)NC(C)c1ccccc1)OCC` (centres undefined), inactive: 1.22%; as for `O=P1(N(CCCl)CCCl)NCCC(C(F)(F)F)O1` (centres undefined), inactive: -0.41%.
With `Clc1n[nH]nc1-c1nn[nH][15n]1`, the inhibition was inactive: -0.38%.
As for `CC(C)(C)C(=O)NC(Sc1ncccn1)C(Cl)(Cl)Cl` (centres undefined), the figure is inactive: -1.19%; as for `COc1ccccc1CNC(=O)COC(=O)C(O)(c1ccccc1)c1ccccc1`, inactive: 0.09%.
As for `CC1(CBr)Cn2c(nc3ccccc3c2=O)S1` (centres undefined), the figure is inactive: 2.78%; as for `CC(C)/C=N\N=C(\N)N[N+](=O)[O-]`, inactive: -2.17%.
For `CN(C(=O)Cc1ccc(Cl)c(Cl)c1)[C@@H]1CCCC[C@H]1N1CCCC1`, the inhibition was inactive: -4.04%.
As for `CN(C(=O)Cc1ccc(Cl)c(Cl)c1)C1CCCC[C@@H]1N1CCCC1` (some centres undefined), the figure is inactive: 1.09%; as for `Cc1nn(-c2ccccc2)c2c1P(=O)(N1CCOCC1)N(C)C(c1ccccc1)=N2` (centres undefined), inactive: 1.54%.
As for `CC1CCC(C(C)C)C(OP(=O)(Nc2ccccn2)c2ccccc2)C1` (centres undefined), the figure is inactive: 1.29%; as for `Cc1ccc(C(=O)OC2CN3CCC2CC3)cc1` (centres undefined), inactive: -1.02%; as for `O=C(/C=C/c1ccccc1)OC1CN2CCC1CC2` (centres undefined), inactive: 5.08%.
Consider `CCCC1OP(=O)(Nc2ccccc2)OCC1CC` (centres undefined), for which the inhibition was inactive: -3.97%.
As for `CN(C)C1(CNC(=O)c2ccc(S(C)(=O)=O)cc2)CCCCC1`, the figure is inactive: -4.19%.
As for `O=P1(Nc2ncccn2)COc2ccccc2OC1`, the figure is inactive: -0.75%; as for `Cc1ccc(S(=O)(=O)N(CCCN)CCCc2c(C)nc(N)[nH]c2=O)cc1`, inactive: 1.32%.
